The record followed here is patent US11642359B2, “Nutritional composition for improving intestinal barrier integrity, preparation of the composition and method of treatment” (priority 2018, dated 2023).

The data set in a line: Growth-associated variables (body weight, body/tail length ratio, BMI, Lee Index) in rotavirus-infected suckling rats. The class given is in vivo, rat. The settings on record: mean ± S.E.M. (n = 12); for Body weight: oral once daily day 2-16; for Lee Index: (weight^0.33/length)×1000; for BMI: body weight/length^2.
Where [1] appears, read: day 8, RV-infected suckling rats.
[2] abbreviates: day 16, RV-infected suckling rats.

The amount applied is not stated for every result.

In the case of 2′-fucosyllactose [2′-FL], the Body weight (day 8 (peak of diarrhea), RV (simian SA-11)-infected suckling rats) amounted to 13.51 ± 0.19 g. For the same substance, under setting [1], the “Lee Index” value is reported as 343.49 ± 2.46, the Body/tail length ratio is reported as 2.32 ± 0.03 and the BMI is reported as 0.28 ± 0.01 g/cm^2. The Body weight (day 16 (end of study), RV-infected suckling rats) is reported as 32.79 ± 0.50 g. Further, under setting [2], the “Lee Index” value is reported as 337.93 ± 3.48, the Body/tail length ratio is 1.86 ± 0.05 and the BMI came out at 0.37 ± 0.01 g/cm^2.
